Here are results for eight compounds from patent US11555006B2, “Elucidation of novel 13-series resolvins that increase with atorvastatin and clear infections” (The Brigham and Women's Hospital, Inc., priority 2015, dated 2023).

SMILES strings stand for the structures.

Data set [1] in a line: Plasma lipid mediator levels in reference plasma, healthy volunteers and sepsis patients (LC-MS-MS). Type of data set: in vivo, human. The settings on record: endogenous level; for Reference Plasma lipid mediator level: NIST SRM 1950 plasma, mean; for Healthy Volunteer lipid mediator level / Sepsis Patients Plasma lipid mediator level: plasma; for Healthy Volunteer lipid mediator level: n=4, mean; for Sepsis Patients Plasma lipid mediator level: n=9, mean.

A short description of data set [2]: Peripheral blood lipid mediator profiles during self-resolving E. coli infections in mice. The data set is classed as in vivo. The settings on record: endogenous level, E. coli 1×10^5 CFU/mouse.
Data set [3] in a line: Peripheral blood lipid mediator profiles pre and post-exercise in healthy volunteers (LC-MS-MS). The data set is classed as in vivo, human. The settings on record: endogenous level, mean, n=4.

In the case of `CC/C=C\C[C@H](O)[C@H](O)/C=C/C=C/C=C\C=C\[C@@H](O)C/C=C\CCC(=O)O` [RvD2], in data set [1], the “Reference Plasma lipid mediator level” value is 0.9 pg/mL, the “Healthy Volunteer lipid mediator level” value amounted to 1.5 pg/mL and the “Sepsis Patients Plasma lipid mediator level” value is 3.7 pg/mL. In addition, in data set [2], the “lipid mediator level 0 h” value turned out to be 8.1 pg/mL, the “lipid mediator level 4 h” value was 16.0 pg/mL, the “lipid mediator level 12 h” value was 22.7 pg/mL and the “lipid mediator level 24 h” value was 4.0 pg/mL. Further, the “lipid mediator level 48 h” value in data set [2] worked out at 2.2 pg/mL. For the same compound, in data set [3], the “Post-Exercise lipid mediator level” value was 1.5 pg/mL and the “Pre-Exercise lipid mediator level” value is 1.1 pg/mL.
On to `CC/C=C\C[C@H](O)/C=C/C=C\C=C\C=C\[C@@H](O)[C@@H](O)C/C=C\CCC(=O)O` [RvD1], for which, in data set [1], the “Reference Plasma lipid mediator level” value stood at 0.8 pg/mL, the “Healthy Volunteer lipid mediator level” value stood at 1.8 pg/mL and the “Sepsis Patients Plasma lipid mediator level” value amounted to 4.6 pg/mL. Moreover, in data set [2], the “lipid mediator level 0 h” value is 5.5 pg/mL, the “lipid mediator level 4 h” value came out at 51.0 pg/mL, the “lipid mediator level 12 h” value is 27.6 pg/mL and the “lipid mediator level 24 h” value is 12.8 pg/mL. Also, the “lipid mediator level 48 h” value in data set [2] worked out at 15.5 pg/mL. Moreover, in data set [3], the “Post-Exercise lipid mediator level” value was 4.6 pg/mL and the “Pre-Exercise lipid mediator level” value was 1.0 pg/mL.
For the compound `CCCCC[C@H](O)/C=C/C=C\C=C\C=C\[C@@H](O)[C@@H](O)CCCC(=O)O` [LXA4], in data set [1], the “Reference Plasma lipid mediator level” value was “* (*below limits; limits ~0.1 pg.)”, the “Healthy Volunteer lipid mediator level” value was found to be 0.8 pg/mL and the “Sepsis Patients Plasma lipid mediator level” value was determined as 5.5 pg/mL. In addition, in data set [2], the “lipid mediator level 0 h” value was found to be 12.6 pg/mL, the “lipid mediator level 4 h” value turned out to be 39.9 pg/mL, the “lipid mediator level 12 h” value was determined as 70.7 pg/mL and the “lipid mediator level 24 h” value was 16.7 pg/mL. Moreover, the “lipid mediator level 48 h” value in data set [2] was found to be 46.0 pg/mL. Further, in data set [3], the “Post-Exercise lipid mediator level” value turned out to be 8.0 pg/mL and the “Pre-Exercise lipid mediator level” value is 3.6 pg/mL.
As to `CCCCC[C@H](O)/C=C/[C@H]1C(=O)C[C@H](O)[C@@H]1C/C=C\CCCC(=O)O` [PGD2], in data set [1], the “Reference Plasma lipid mediator level” value was found to be 7.3 pg/mL, the “Healthy Volunteer lipid mediator level” value was found to be 9.8 pg/mL and the “Sepsis Patients Plasma lipid mediator level” value worked out at 79.4 pg/mL. In data set [2], the “lipid mediator level 0 h” value turned out to be 7.7 pg/mL, the “lipid mediator level 4 h” value worked out at 353.5 pg/mL, the “lipid mediator level 12 h” value was 273.4 pg/mL and the “lipid mediator level 24 h” value amounted to 77.3 pg/mL. Besides, in data set [2], the “lipid mediator level 48 h” value turned out to be 106.3 pg/mL. Further, in data set [3], the “Post-Exercise lipid mediator level” value turned out to be 31.2 pg/mL and the “Pre-Exercise lipid mediator level” value came to 6.5 pg/mL.
As for `CC/C=C\C[C@H](O)\C=C/C=C/C=C/[C@H](O)C/C=C\C/C=C\CCC(=O)O` [PD1], in data set [1], the “Reference Plasma lipid mediator level” value was “* (*below limits; limits ~0.1 pg.)”, the “Healthy Volunteer lipid mediator level” value stood at 1.2 pg/mL and the “Sepsis Patients Plasma lipid mediator level” value stood at 1.5 pg/mL. Further, in data set [2], the “lipid mediator level 0 h” value is 1.8 pg/mL, the “lipid mediator level 4 h” value turned out to be 4.2 pg/mL, the “lipid mediator level 12 h” value amounted to 4.1 pg/mL and the “lipid mediator level 24 h” value was determined as 3.0 pg/mL. Besides, the “lipid mediator level 48 h” value in data set [2] stood at 3.9 pg/mL. Besides, in data set [3], the “Post-Exercise lipid mediator level” value was 0.5 pg/mL and the “Pre-Exercise lipid mediator level” value came out at 0.3 pg/mL.
Take `CCCCC[C@H](O)[C@H](O)/C=C/C=C/C=C\C=C\[C@@H](O)CCCC(=O)O` [LXB4]: in data set [1], the “Reference Plasma lipid mediator level” value came out at 8.7 pg/mL, the “Healthy Volunteer lipid mediator level” value worked out at 3.2 pg/mL and the “Sepsis Patients Plasma lipid mediator level” value worked out at 56.7 pg/mL. In data set [2], the “lipid mediator level 0 h” value was 41.1 pg/mL, the “lipid mediator level 4 h” value came out at 73.9 pg/mL, the “lipid mediator level 12 h” value turned out to be 143.9 pg/mL and the “lipid mediator level 24 h” value stood at 37.2 pg/mL. Further, the “lipid mediator level 48 h” value in data set [2] is 36.2 pg/mL. In data set [3], the “Post-Exercise lipid mediator level” value was 19.3 pg/mL and the “Pre-Exercise lipid mediator level” value turned out to be 7.4 pg/mL.
For the compound `CCCCC[C@H](O)/C=C/[C@H]1[C@H](O)CC(=O)[C@@H]1C/C=C\CCCC(=O)O` [PGE2], in data set [1], the “Reference Plasma lipid mediator level” value was found to be 17.8 pg/mL, the “Healthy Volunteer lipid mediator level” value came out at 24.1 pg/mL and the “Sepsis Patients Plasma lipid mediator level” value was found to be 132.1 pg/mL. Further, in data set [2], the “lipid mediator level 0 h” value is 9.2 pg/mL, the “lipid mediator level 4 h” value amounted to 1602.0 pg/mL, the “lipid mediator level 12 h” value was determined as 1775.6 pg/mL and the “lipid mediator level 24 h” value was 323.0 pg/mL. In addition, the “lipid mediator level 48 h” value in data set [2] turned out to be 414.3 pg/mL. In data set [3], the “Post-Exercise lipid mediator level” value is 148.4 pg/mL and the “Pre-Exercise lipid mediator level” value turned out to be 115.2 pg/mL.
`CC/C=C\C/C=C\C[C@H](O)\C=C/C=C/C=C/[C@H](O)C/C=C\CCC(=O)O` [MaR1]: in data set [1], the “Reference Plasma lipid mediator level” value is “* (*below limits; limits ~0.1 pg.)”, the “Healthy Volunteer lipid mediator level” value was “* (*below limits; limits ~0.1 pg.)” and the “Sepsis Patients Plasma lipid mediator level” value came to 7.4 pg/mL. Also, in data set [2], the “lipid mediator level 0 h” value was “* (* = below limits limits ~0.1 pg.)”, the “lipid mediator level 4 h” value is given as “* (* = below limits limits ~0.1 pg.)”, the “lipid mediator level 12 h” value was “* (* = below limits limits ~0.1 pg.)” and the “lipid mediator level 24 h” value is “* (* = below limits limits ~0.1 pg.)”. Moreover, in data set [2], the “lipid mediator level 48 h” value was “* (* = below limits limits ~0.1 pg.)”. Moreover, in data set [3], the “Post-Exercise lipid mediator level” value is recorded as “* (* = below limits; limits ~0.1 pg.)” and the “Pre-Exercise lipid mediator level” value was “* (* = below limits; limits ~0.1 pg.)”.
